Assay results: patent publication US12636279B2, “Choline salt forms of an HIV capsid inhibitor” (Gilead Sciences, Inc., priority 2017, dated 2026)

Test system: MT4 cells
Assay: Test B: Cytotoxicity Assay (uninfected MT4 cells)
Assay type: cell-based
Settings: 5 days, CellTiter-Glo

SMILES | CC50
Cn1nc(NS(C)(=O)=O)c2c(Cl)ccc(-c3ccc(C#CC(C)(C)O)nc3[C@H](Cc3cc(F)cc(F)c3)NC(=O)Cn3nc(C(F)F)c4c3C(F)(F)[C@@H]3C[C@H]43)c21 [Compound A] | 21.8 µM
Cn1nc(NS(C)(=O)=O)c2c(Cl)ccc(-c3ccc(C#CC(C)(C)O)nc3[C@H](Cc3cc(F)cc(F)c3)NC(=O)Cn3nc(C(F)(F)F)c4c3C(F)(F)[C@@H]3C[C@H]43)c21 [Compound B] | 14.5 µM
